## Deep mutational scan of the Zika virus protease

Protein: NS2B and the protease part of NS3 of Zika virus strain MR766. Positions count along the chain below; NS2B spans 2-131 and NS3 starts at 132.
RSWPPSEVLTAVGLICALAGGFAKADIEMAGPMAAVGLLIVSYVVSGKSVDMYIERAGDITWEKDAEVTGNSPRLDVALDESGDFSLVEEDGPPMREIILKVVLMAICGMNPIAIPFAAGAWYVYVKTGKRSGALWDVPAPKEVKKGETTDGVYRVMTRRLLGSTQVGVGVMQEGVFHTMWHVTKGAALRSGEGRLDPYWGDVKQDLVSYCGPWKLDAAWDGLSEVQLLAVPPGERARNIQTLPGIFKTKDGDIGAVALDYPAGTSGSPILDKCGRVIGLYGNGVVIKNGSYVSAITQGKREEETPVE

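Pools of virus carrying all single amino acid changes were selected for growth in Huh-7.5 cells. Sequencing of three replicate libraries (two for positions 207-308) was averaged into one effect per change. The study looked for pockets that tolerate few changes, as a guide for inhibitor design.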

Values are log2 effects on growth: 0 is wild type, lower means poorer growth. Each entry names the wild-type residue, its position and the residue put in its place.

| mutation | effect (log2) |
|---|---|
| L14D | -5.42 |
| V124W | 0.22 |
| I54S | -7.68 |
| A218L | -7.79 |
| Y261A | -3.03 |
| P73V | -1.50 |
| Y261* | -7.07 |
| E193V | -1.85 |
| P139K | -5.30 |
| I60N | -5.17 |
| S268Y | -5.75 |
| W3D | -5.47 |
| P262M | -4.68 |
| P198D | -6.61 |
| G70E | -5.75 |
| M172* | -8.58 |
| V124D | -1.91 |
| D251G | -3.99 |
| L161H | -5.05 |
| I15H | -6.83 |
| L228A | -3.35 |
| Q241V | -6.88 |
| G192K | -2.36 |
| G245E | -5.60 |
| V153I | 0.14 |
| L228G | -4.93 |
| D221M | -5.22 |
| G147I | -3.75 |
| T158* | -6.77 |
| L9N | -4.16 |
| L207W | -7.21 |
| A34W | -4.60 |
| Y154F | -4.90 |
| M33S | -4.54 |
| L161E | -4.67 |
| K288M | -5.26 |
| A295I | -4.15 |
| K185T | -4.98 |
| L259I | 0.81 |
| P94N | -0.91 |
| G252R | -0.49 |
| V156L | -4.17 |
| G290N | -5.30 |
| L161C | -3.95 |
| S209N | -5.76 |
| Y43L | -6.00 |
| A258W | -5.13 |
| S291* | -6.75 |
| N71V | -3.61 |
| G175K | -4.07 |
| V88I | -0.05 |
| A11* | -7.28 |
| I287C | 1.07 |
| K288F | -5.46 |
| M172D | -5.61 |
| K288S | 0.02 |
| I99C | -0.49 |
| C211F | -2.94 |
| Q166G | -6.39 |
| L18N | -6.19 |
| I115R | -7.18 |
| G290D | -5.46 |
| V171A | -5.39 |
| W62R | -6.69 |
| G147L | -4.05 |
| T150Q | -2.92 |
| E97A | -2.80 |
| E302Y | 0.61 |
| G20Y | -5.86 |
| Y53I | -4.06 |
| Q298S | -5.64 |
| D217S | -3.89 |
| V203L | -8.26 |
| L87K | -7.08 |
| P139Q | -6.05 |
| E193A | -1.16 |
| S46* | -4.49 |
| S86L | -6.71 |
| V293I | -0.68 |
| T10Y | -5.59 |
| Q227C | -5.05 |
| K185G | -5.01 |
| T128E | -3.27 |
| G212* | -8.93 |
| L39P | -3.43 |
| D137E | -6.84 |
| I40M | 0.52 |
| V257L | -6.39 |
| S72D | -6.03 |
| A237D | -4.59 |
| I254H | -6.12 |
| D206E | -6.74 |
| R155* | -6.31 |
| K142T | -1.92 |
| G109S | -6.25 |
| P232K | -4.63 |
| V44G | -6.59 |
| H178K | -4.73 |
| I278L | -0.55 |
| M95G | -3.93 |
| M95R | -4.23 |
| A218C | -3.94 |
| G264P | -5.94 |
| H178V | -5.93 |
| G58S | -2.37 |
| E303Y | -1.24 |
| G152W | -6.02 |
| D221R | -6.74 |
| P112Q | -3.98 |
| S268E | -4.33 |
| E63W | -3.21 |
| K185H | -1.54 |
| Y281F | -5.49 |
| Q166A | -6.25 |
| A23P | -2.95 |
| E148S | -1.43 |
| E235V | -2.08 |
| V102T | -0.74 |
| S72P | -6.38 |
| E55Q | -1.98 |
| V257A | -5.90 |
| G275M | -4.40 |
| P233N | -5.62 |

The first 8 entries again:

L14D read -5.42.
V124W read 0.22.
I54S read -7.68.
A218L read -7.79.
Y261A read -3.03.
P73V read -1.50.
Y261* read -7.07.
E193V read -1.85.

Six mutants with high scores were retested singly and none clearly outgrew wild type, so positive values are not proof of better growth. The region was split into three libraries (1-103, 104-206, 207-308). Position 1 still belongs to NS2A. In the paper, -1 or higher counts as tolerated. Stop codons (*) centre on -7 and mark the level of dead virus.

The measurements come from Ni et al. 2025 (doi:10.1038/s41467-025-63602-z).